This note sets out measurements from article PMC5512693, “Bacterial RadA is a DnaB-type helicase interacting with RecA to promote bidirectional D-loop extension” (Nature Communications, 2017).

For at least one entry, the source does not settle the construct or the ends of the probe. For some of these results: Weaker means in comparison with the reference protein, sequence or condition of that experiment.

Series [1] deals with RadA (Streptococcus pneumoniae (R800 derivative)). Kind of series: competition with a labelled probe. The conditions noted are these: 5-20 nM Ovio8-Cy5 against 10 nM Ovio10-Cy3, 10 mM Mg2+; competition: 10 mM Tris-Cl pH 7.5, ~50 mM NaCl, 10 mM Mg(OAc)2; recombinant protein; label: 3' Cy5; single-stranded DNA.
The test system is the same in series [2]. Kind of series: EMSA. The conditions noted are these: 10 nM DNA, 10 mM Mg2+, 10 mM Mg(OAc)2, 0.1 mg/ml BSA, 8% glycerol, 1 mM DTT, 15 min 37 C, recombinant protein. In general terms: In EMSA bound probe runs differently from free probe, usually more slowly.

For “ACTTGATTCTGTCGCTACTGATTACGGTGCTGCTATCGATGGTTTAACGTCATAGACGATTACATTGCTAATTGTTATCCGCTCACAATTCCACACAACA [Ovio8-Cy5]”, the binding result in series [1] is listed as “binds”.

Take “AATCATGGTCATAGCTGTTTCCTGTGTGAAATCACTGGCACTGGTAGAATTCGGCCCATTAGCAAGGCCGGAAACGTCACCCTCCAGTTTCTCGCCTCTG [Ovio10-Cy3]”: in series [2] (750 nM RadA, displaced by Ovio8-Cy5, 50 mM Tris-Cl pH 7.5, 100 mM NaCl, +/- 5 mM ATP, label: 3' Cy3, single-stranded DNA), the binding result is on record as “binds”.

Turning to “AATCATGGTCATAGCTGTTTCCTGTGTGAATAGCAATGTAATCGTCTATGACGTTAAACCATCGATAGCAGCACCGTAATCAGTAGCGACAGAATCAAGT (double strand) [D structure, 100-bp dsDNA (Ovio9-Cy3 + Olea41, inferred)]”, the binding result was “binds more weakly” in series [2] (5 mM ATP, 50 mM Tris-Cl pH 7.5, 100 mM NaCl, label: 3' Cy3 on strand 1) and “binds” in series [2] (no ATP, slightly weaker than ssDNA, 50 mM Tris-Cl pH 7.5, 100 mM NaCl, +/- 5 mM ATP, label: 3' Cy3 on strand 1).
